# According to paper PMC12071706 (International Journal of Molecular Sciences, 2025):
# Target: human ACE2 protein (hACE2), recombinant, His-tagged, Gln18-Ser740 (human, UniProt Q9BYF1 18-740)
# Assay: ITC
binder,measurement,value
"GVKGFNCYFPLQSYGFQPTNG [Zeta RBM fragment (peptide) of the SARS-CoV-2 spike protein, E484K]",stoichiometry N,0.76
